A mixed list of measured activities; the numbers were collected in NIAID ChemDB.

All rows: tests in culture; agent: Mycobacterium fortuitum; read-out: MIC

An empty or dashed field is not shown.

| SMILES | strain | result |
|---|---|---|
| N/C(=N/N=C/c1ccc(Cl)cc1)c1ccccn1 | - | 256 µg/mL |
| C[C@@H](O)[C@H]1C(=O)N2C(C(=O)O)=C(SCCN=CN)C[C@H]12 | 1004-8 | 6.25 µg/mL |
| Clc1ccc2c(c1)nc1cc(Nc3ccccc3)c(=NC3CCCCC3)cc-1n2-c1ccccc1 | 8521 | 5 µg/mL |
| CCn1cc(C(=O)O)c(=O)c2cc(F)c(C3CSC(C)N3C)cc21 | - | >100 µg/mL |
| N/C(=N/N=C/c1ccc(Br)cc1)c1ccccn1 | - | 256 µg/mL |
| CCn1cc(C(=O)O)c(=O)c2ccc(-c3csc(-c4ccccc4)n3)cc21 | - | 1.6 µg/mL |
| COc1ccc(OC)c(/C=N/N=C(\N)c2ccccn2)c1 | - | 256 µg/mL |
| CO[C@@]1(NC(=O)Cc2cccs2)C(=O)N2C(C(=O)O)=C(COC(N)=O)CS[C@@H]21 | 1047 | 12.5 µg/mL |
| CCn1cc(C(=O)O)c(=O)c2cc(F)c(-c3csc(N)n3)cc21 | - | 3.12 µg/mL |
| N/C(=N\N=C\c1ccc(Cl)c([N+](=O)[O-])c1)c1ccccn1 | - | 256 µg/mL |
| CO[C@@]1(NC(=O)C2SC(=C(C(N)=O)C(=O)[O-])S2)C(=O)N2C(C(=O)[O-])=C(CSc3nnnn3C)CS[C@@H]21 | 1263 | 50 µg/mL |
| CCn1cc(C(=O)O)c(=O)c2cc(F)c(-c3csc(-c4ccccc4)n3)cc21 | - | 3.12 µg/mL |
| CO[C@@]1(NC(=O)Cn2cnnn2)C(=O)N2C(C(=O)O)=C(CSc3nnc(C)s3)CSC21 | 1004-8 | >100 µg/mL |
| CCn1cc(C(=O)O)c(=O)c2ccc(C3CSC(C)N3C)cc21 | - | >100 µg/mL |
| Cc1ccc(C)c(/C=N/N=C(\N)c2ccccn2)c1 | - | 256 µg/mL |

2 of the rows above, restated:

SMILES,strain,result
CCn1cc(C(=O)O)c(=O)c2ccc(C3CSC(C)N3C)cc21,-,>100 µg/mL
Clc1ccc2c(c1)nc1cc(Nc3ccccc3)c(=NC3CCCCC3)cc-1n2-c1ccccc1,8521,5 µg/mL

Conditions beyond the fields shown may differ between rows.